Measured data: PubChem BioAssay AID624099 (ICCB-Longwood, 2012)
The whole screen tested about 21,000 reagents; below is a part drawn at random. Of all reagents, 497 (2.4%) are marked active. 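Higher z means weaker E2 silencing; only reporter increases were scored, and knock-downs that hurt cell survival may mask genuine repressor factors.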 A number with no mark means an inactive call. No sequences are given here.

Aim: 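Host factors E2 relies on to silence an HPV18 LCR reporter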 (primary screen)
Cells: human C33A cervical carcinoma cells (HPV-negative) stably expressing BPV1 E2 and an HPV18 LCR luciferase reporter
Reagent: siRNA pool against human genes, 40 nM
Timing: 72 h
Detection: 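HPV18 LCR reporter light per well, converted to plate-wise z-scores that exclude control wells, and averaged over triplicate plates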
Scale: mean z-score and z-score: higher = stronger reporter signal, weaker E2 silencing
Rule for the call: 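Hit if mean z-score reaches 2 and two or more of three replicate z-scores also reach 2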

HLTF gave mean z-score 0.03; z-score, replicate A = 0.12; z-score, replicate B = 0.21; z-score, replicate C = -0.25.
With knock-down of PSMB9, the screen gave mean z-score 2.84 (active); z-score, replicate A = 3.04; z-score, replicate B = 2.71; z-score, replicate C = 2.76.
Knock-down of PML came out at: mean z-score 1.18; z-score, replicate A = 1.11; z-score, replicate B = 1.12; z-score, replicate C = 1.31.
Silencing of PPM1B resulted in: mean z-score -0.2; z-score, replicate A = -0.47; z-score, replicate B = 0.03; z-score, replicate C = -0.16.
GAGE12I gave mean z-score -1.18; z-score, replicate A = -0.99; z-score, replicate B = -0.99; z-score, replicate C = -1.55.
After knock-down of MARS2 the results were mean z-score 1.54; z-score, replicate A = 1.54; z-score, replicate B = 1.2; z-score, replicate C = 1.87.
After knock-down of PAWR the results were mean z-score 1.79; z-score, replicate A = 1.87; z-score, replicate B = 1.98; z-score, replicate C = 1.53.
HDAC5 showed mean z-score 1.27; z-score, replicate A = 1.16; z-score, replicate B = 1.28; z-score, replicate C = 1.38.
Depletion of NAA16 came out at: mean z-score -0.13; z-score, replicate A = -0.52; z-score, replicate B = -0.52; z-score, replicate C = 0.65.
For HOXA11, the values are mean z-score 0.26; z-score, replicate A = 0.03; z-score, replicate B = 0.49; z-score, replicate C = 0.26.
Silencing of CD5L came out at: mean z-score -0.59; z-score, replicate A = -0.67; z-score, replicate B = -0.62; z-score, replicate C = -0.49.
Against IFNG, the entry reads mean z-score -0.3; z-score, replicate A = -0.35; z-score, replicate B = -0.25; z-score, replicate C = -0.3.
Against HNRNPF, the values are mean z-score 1.65; z-score, replicate A = 1.58; z-score, replicate B = 2.07; z-score, replicate C = 1.29.
Silencing of TOR1A came out at: mean z-score -0.18; z-score, replicate A = 0.06; z-score, replicate B = -0.38; z-score, replicate C = -0.22.
After knock-down of PLPPR4 the results were mean z-score -0.31; z-score, replicate A = -0.3; z-score, replicate B = -0.44; z-score, replicate C = -0.19.
Knock-down of ITPRID1 resulted in: mean z-score -2.01; z-score, replicate A = -2.12; z-score, replicate B = -1.9; z-score, replicate C = -1.62.
LPCAT3 gave mean z-score -0.03; z-score, replicate A = -0.26; z-score, replicate B = 0.12; z-score, replicate C = 0.06.
Depletion of ZC3H3 came out at: mean z-score 1.05; z-score, replicate A = 0.8; z-score, replicate B = 1.44; z-score, replicate C = 0.9.
With knock-down of ARL14EP, the screen gave mean z-score 0.13; z-score, replicate A = 0.07; z-score, replicate B = 0.21; z-score, replicate C = 0.1.
RASGRP4 showed mean z-score -0.51; z-score, replicate A = -0.55; z-score, replicate B = -0.34; z-score, replicate C = -0.66.
After knock-down of PLCD4 the results were mean z-score -0.72; z-score, replicate A = -0.72; z-score, replicate B = -0.46; z-score, replicate C = -0.97.
